# Measured values as given in publication PMC10913437.
# Sequences of proteins named here, by UniProt entry; tags and fusion partners are left off. A change or cut given only in a name is not applied to a line headed by its entry.
# UniProt Q2G1N7: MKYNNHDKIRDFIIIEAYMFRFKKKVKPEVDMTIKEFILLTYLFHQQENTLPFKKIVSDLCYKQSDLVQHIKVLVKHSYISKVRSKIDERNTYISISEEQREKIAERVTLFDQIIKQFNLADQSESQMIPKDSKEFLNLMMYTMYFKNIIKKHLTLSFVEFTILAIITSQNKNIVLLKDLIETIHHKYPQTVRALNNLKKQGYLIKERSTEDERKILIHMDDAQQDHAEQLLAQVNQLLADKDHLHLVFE
# Biological target: SarS (rSarS, MW2 type) (Staphylococcus aureus JP018 (same SarS as MW2)) (UniProt Q2G1N7)
# Experiment: EMSA
# Settings: recombinant protein; residues 1-250; protein details: His-tag (pET24b); label: Cy3 (5' on T7 promoter-1 primer); probe letters rebuilt from the primers and the genome; part of a longer molecule
sequence,measurement,value
GACAGGAAGCATACTGCAAGTGAAGTTGGGAAGTGTTGTTAATACCAAGTAAGTAAGATATCTGAAATGTATAATAGAGTAAAAATGAAATCTTTTTATTATAGACAAATATAAAAAGTGTATAGTAATATATGTATGTATAATTAAATGATAATCATTTCATAATTATTGTATATAACTAAATAACTACTTAACAAAAATAATTATGCTTTAGAGGTGAGCAAA (double strand) [sea promoter 1 probe],binding result,binds

# The exact form of at least one protein or probe is not confirmed.
